Compound potency records, mixed from different reports. Data source: NIAID ChemDB in PubChem.

Common to all: growth or infection tests; organism: Mycobacterium avium complex

Blank or dashed fields: not listed here. Two numbers with a dash give a range or band. Lines come from different laboratories, so protocols vary. MIC50, MIC90 and the like: level of inhibition, or share of isolates inhibited. ECn is the concentration giving n% inhibition of infection, replication or growth.

SMILES	strain or isolate	endpoint	read by	result
CN[C@H](CC(C)C)C(=O)N[C@H]1C(=O)N[C@@H](CC(N)=O)C(=O)N[C@H]2C(=O)N[C@H]3C(=O)N[C@H](C(=O)N[C@H](C(=O)O)c4cc(O)cc(O)c4-c4cc3ccc4O)[C@H](O)c3ccc(c(Cl)c3)Oc3cc2cc(c3O[C@@H]2O[C@H](CO)[C@@H](O)[C@H](O)[C@H]2O[C@H]2C[C@](C)(N)[C@H](O)[C@H](C)O2)Oc2ccc(cc2Cl)[C@H]1O	31 strains	MIC		16 µg/mL
COc1ccc(NS(=O)(=O)c2ccc(N)cc2)nn1	30 isolates	MIC		64 µg/mL
CC1CN(c2c(F)cc3c(=O)c(C(=O)O)cn(C4CC4)c3c2F)C(C)CN1	1760694	MIC		4 µg/mL
CN[C@@H]1[C@H](O)[C@H](NC)[C@H]2O[C@@]3(O)C(=O)C[C@@H](C)O[C@H]3O[C@@H]2[C@H]1O	25 isolates	MIC90		>64 µg/mL
N[C@@H]1CN(c2c(F)cc3c(=O)c(C(=O)O)cn([C@@H]4C[C@@H]4F)c3c2Cl)CC12CC2	16 isolates	MIC50		6.25 µg/mL
C=CCCN1CCN(c2cc(=O)c3nc4c(oc3c2)c2c(=O)c3c(O)c(C)c5c(c34)=C(O)[C@@](C)(O/C=C/[C@H](OC)[C@@H](C)[C@@H](OC(C)=O)[C@H](C)[C@H](O)[C@H](C)[C@@H](O)[C@@H](C)/C=C/C=C(/C)C(=O)N2)O5)CC1	31F093T	MIC		0.07 µg/mL
NC1CCN(c2nc3c(cc2F)c(=O)c(C(=O)O)cn3-c2ccc(F)cc2F)C1	ATCC 35718	MBC		>8 µg/mL
CO/N=C(\C(=O)N[C@@H]1C(=O)N2C(C(=O)O)=C(COC(C)=O)CS[C@H]12)c1csc(N)n1	T11	MIC		0.78 µg/mL
NC1CCN(c2c(F)cc3c(=O)c(C(=O)O)cn(C4CC4)c3c2F)C1	PI12/39	MIC		8 µg/mL
NC[C@H]1O[C@H](O[C@H]2[C@H](O)[C@@H](O[C@H]3O[C@H](CO)[C@@H](O)[C@H](N)[C@H]3O)[C@H](N)C[C@@H]2N)[C@H](O)[C@@H](O)[C@@H]1O	Isolate C-50	MIC		25 µg/mL
CCNCC1CN(c2c(F)cc3c(=O)c(C(=O)O)cn(C4CC4)c3c2F)CC1CNCC	1988557	MIC		32 µg/mL
CO[C@H]1/C=C/O[C@@]2(C)Oc3c(C)c(O)c4c(O)c(c(/C=N/N5CCN(C)CC5)c(O)c4c3C2=O)NC(=O)/C(C)=C\C=C\[C@H](C)[C@H](O)[C@@H](C)[C@@H](O)[C@@H](C)[C@H](OC(C)=O)[C@@H]1C	13008 (serotype 20)	MIC		0.4 µg/mL
CN[C@@H]1[C@H](O[C@H]2[C@H](O[C@H]3[C@H](O)[C@@H](O)[C@H](N=C(N)N)[C@@H](O)[C@@H]3N=C(N)N)O[C@@H](C)[C@]2(O)C=O)O[C@@H](CO)[C@H](O)[C@H]1O		MIC50		>0.4 µg/mL
CN[C@@H]1[C@@H](O)[C@@H](O[C@@H]2[C@@H](O)[C@H](O[C@H]3O[C@H](CN)CC[C@H]3N)[C@@H](N)C[C@H]2N)OC[C@]1(C)O	ATCC 35718	MBC		>64 µg/mL
Nc1nc(-n2cc(C(=O)O)c(=O)c3cc(F)c(N4CC(O)C4)c(Cl)c32)c(F)cc1F	20 strains	MIC90		25 µg/mL
NCC[C@H](O)C(=O)N[C@@H]1C[C@H](N)[C@@H](O[C@H]2O[C@H](CN)[C@@H](O)[C@H](O)[C@H]2O)[C@H](O)[C@H]1O[C@H]1O[C@H](CO)[C@@H](O)[C@H](N)[C@H]1O	30 isolates	MIC		4–16 µg/mL
O=C(O)c1cn(C2CC2)c2c(F)c(N3CCC(NC4CC4)C3)c(F)cc2c1=O	1760694	MIC		8 µg/mL
N[C@@H]1CN(c2c(F)cc3c(=O)c(C(=O)O)cn([C@@H]4C[C@@H]4F)c3c2Cl)CC12CC2		MIC50		2–8 µg/mL
CO/N=C(/C(=O)N[C@@H]1C(=O)N2C(C(=O)O)=C(COC(N)=O)CS[C@H]12)c1ccco1	31 strains	MIC		32 µg/mL
COC1CCN(c2c(F)cc3c(=O)c(C(=O)O)cn(C4CC4)c3c2F)C1	1915112	MIC		1 µg/mL
CO[C@H]1/C=C/O[C@@]2(C)Oc3c(C)c(O)c4c(=O)c(c5oc6cc(N7CCN(CC(C)C)CC7)cc(=O)c6nc5c4c3=C2O)NC(=O)/C(C)=C\C=C\[C@H](C)[C@H](O)[C@@H](C)[C@@H](O)[C@@H](C)[C@H](OC(C)=O)[C@@H]1C	N-966	MIC		0.12 µg/mL
CCn1cc(C(=O)O)c(=O)c2cc(F)c(N3CCN(C)CC3)cc21	17 isolates	MIC90		>16 µg/mL
NC[C@@H]1O[C@H](O[C@H]2[C@@H](O)[C@H](O[C@@H]3[C@@H](O)[C@H](N)C[C@H](N)[C@H]3O[C@H]3O[C@H](CO)[C@@H](O)[C@H](O)[C@H]3N)O[C@@H]2CO)[C@H](N)[C@@H](O)[C@@H]1O	CH-2/HIV+	MIC		3.12 µg/mL
CO[C@H]1/C=C/O[C@@]2(C)Oc3c(C)c(O)c4c(=O)c(c5oc6cc(N7CCN(C=O)CC7)cc(=O)c6nc5c4c3=C2O)NC(=O)/C(C)=C\C=C\[C@H](C)[C@H](O)[C@@H](C)[C@@H](O)[C@@H](C)[C@H](OC(C)=O)[C@@H]1C	31F093T	MIC		1.25 µg/mL
CN1CCN(c2c(F)cc3c(=O)c(C(=O)O)cn(CCF)c3c2F)CC1	16 isolates	MIC90		100 µg/mL
CC1COc2c(N3CCN(C)CC3)c(F)cc3c(=O)c(C(=O)O)cn1c23		MIC50		16–64 µg/mL
CC1(C)S[C@@H]2[C@H](NC(=O)Cc3ccccc3)C(=O)N2[C@H]1C(=O)O	31 strains	MIC		16 µg/mL
CC1COc2c(N3CCN(C)CC3)c(F)cc3c(=O)c(C(=O)O)cn1c23	30 isolates	MIC		64 µg/mL
CC(C)N=c1cc2n(-c3ccc(Cl)cc3)c3ccccc3nc-2cc1Nc1ccc(Cl)cc1	101	MIC		0.5 µg/mL
CO[C@H]1/C=C/O[C@@]2(C)Oc3c(C)c(O)c4c(=O)c(c5oc6cc(N7CCN(CC(C)C)CC7)cc(=O)c6nc5c4c3=C2O)NC(=O)/C(C)=C\C=C\[C@H](C)[C@H](O)[C@@H](C)[C@@H](O)[C@@H](C)[C@H](O)[C@@H]1C	31F093T	MIC		0.07 µg/mL
CCn1cc(C(=O)O)c(=O)c2cc(F)c(N3CCNC(C)C3)c(F)c21	16 isolates	MIC90		50 µg/mL
CCCCCCCCOC1OC(C)C(O[C@@H]2O[C@@H]([C@H](O)CO)[C@H](O)[C@H]2O)C(O)C1O	NJ168	MIC		>128 µg/mL
NCC1CN(c2c(F)cc3c(=O)c(C(=O)O)cn(C4CC4)c3c2F)CC1c1ccccc1	1760694	MIC		16 µg/mL
COc1c(N2CCNC(C)C2)c(F)cc2c(=O)c(C(=O)O)cn(C3CC3)c12		MIC50		2–8 µg/mL
CC(=O)OCC1=C(C(=O)O)N2C(=O)[C@@H](NC(=O)Cc3cccs3)[C@H]2SC1	31 strains	MIC		16 µg/mL
NCCC(O)C(N)CC(=O)NC1CNC(=O)C(C2CCN=C(N)N2)NC(=O)/C(=C/NC(N)=O)NC(=O)C(CO)NC(=O)C(CO)NC1=O	13011 (serotype 16)	MIC		25 µg/mL
COc1c(N2CCNC(C)C2)c(F)cc2c(=O)c(C(=O)O)cn(C3CC3)c12	16 isolates	MIC50		1.56 µg/mL
CC(=O)NC[C@H]1CN(c2ccn(-c3ccc(N4CCSCC4)c(F)c3)c2)C(=O)O1		MIC50		5.8 µM
CO[C@H]1/C=C/O[C@@]2(C)Oc3c(C)c(O)c4c(=O)c(c5oc6cc(N7CCN(CC(C)C)CC7)cc(=O)c6nc5c4c3=C2O)NC(=O)/C(C)=C\C=C\[C@H](C)[C@H](O)[C@@H](C)[C@@H](O)[C@@H](C)[C@H](OC(C)=O)[C@@H]1C	20 strains	MIC50		0.1 µg/mL
Cc1onc(-c2ccccc2)c1C(=O)N[C@@H]1C(=O)N2[C@@H]1SC(C)(C)[C@@H]2C(=O)O	31 strains	MIC		2 µg/mL
CO[C@H]1/C=C/O[C@@]2(C)Oc3c(C)c(O)c4c(O)c(c(/C=N/N5CCN(C)CC5)c(O)c4c3C2=O)NC(=O)/C(C)=C\C=C\[C@H](C)[C@H](O)[C@@H](C)[C@@H](O)[C@@H](C)[C@H](OC(C)=O)[C@@H]1C	52 strains	MIC90		50 µg/mL
CC[C@H]1OC(=O)[C@H](C)[C@@H](O[C@H]2C[C@@](C)(OC)[C@@H](O)[C@H](C)O2)[C@H](C)[C@@H](O[C@@H]2O[C@H](C)C[C@H](N(C)C)[C@H]2O)[C@](C)(O)C[C@@H](C)C(=O)[C@H](C)[C@@H](O)[C@]1(C)O	31 strains	MIC		4 µg/mL
NC(=O)c1cnccn1		MIC50		>5 µg/mL
NNC(=O)c1ccncc1	30 isolates	MIC		32 µg/mL
N[C@@H]1CN(c2c(F)cc3c(=O)c(C(=O)O)cn([C@@H]4C[C@@H]4F)c3c2Cl)CC12CC2	N-444	MIC		1 µg/mL
CC1COc2c(C3(N)CC3)c(F)cc3c(=O)c(C(=O)O)cn1c23	16 isolates	MIC50		50 µg/mL
CC[C@H]1OC(=O)[C@H](C)[C@@H](O[C@H]2C[C@@](C)(OC)[C@@H](O)[C@H](C)O2)[C@H](C)[C@@H](O[C@@H]2O[C@H](C)C[C@H](N(C)C)[C@H]2O)[C@](C)(OC)C[C@@H](C)C(=O)[C@H](C)[C@@H](O)[C@]1(C)O	N-444	MIC		8 µg/mL
O=[N+]([O-])c1ccc(Sn2cnc3c(=S)nc[nH]c32)cc1		EC50	resazurin	<12.5 µM
CC[C@@H](CO)NCCN[C@@H](CC)CO	30 isolates	MIC		0.03–16 µg/mL
CC(C)(N)C1CCN(c2c(F)cc3c(=O)c(C(=O)O)cn(C4CC4)c3c2F)C1	14 strains	MIC90		16 µg/mL
CC[C@H]1OC(=O)[C@H](C)[C@@H](O[C@H]2C[C@@](C)(OC)[C@@H](O)[C@H](C)O2)[C@H](C)[C@@H](O[C@@H]2O[C@H](C)C[C@H](N(C)C)[C@H]2O)[C@](C)(O)C[C@@H](C)/C(=N\OCOCCOC)[C@H](C)[C@@H](O)[C@]1(C)O	30 isolates	MIC		2–16 µg/mL
CC1CN(c2c(F)cc3c(=O)c(C(=O)O)cn(C4CC4)c3c2F)CCN1	14 strains	MIC50		1 µg/mL

Repeating the first 4 entries:

SMILES	strain or isolate	endpoint	read by	result
CN[C@H](CC(C)C)C(=O)N[C@H]1C(=O)N[C@@H](CC(N)=O)C(=O)N[C@H]2C(=O)N[C@H]3C(=O)N[C@H](C(=O)N[C@H](C(=O)O)c4cc(O)cc(O)c4-c4cc3ccc4O)[C@H](O)c3ccc(c(Cl)c3)Oc3cc2cc(c3O[C@@H]2O[C@H](CO)[C@@H](O)[C@H](O)[C@H]2O[C@H]2C[C@](C)(N)[C@H](O)[C@H](C)O2)Oc2ccc(cc2Cl)[C@H]1O	31 strains	MIC		16 µg/mL
COc1ccc(NS(=O)(=O)c2ccc(N)cc2)nn1	30 isolates	MIC		64 µg/mL
CC1CN(c2c(F)cc3c(=O)c(C(=O)O)cn(C4CC4)c3c2F)C(C)CN1	1760694	MIC		4 µg/mL
CN[C@@H]1[C@H](O)[C@H](NC)[C@H]2O[C@@]3(O)C(=O)C[C@@H](C)O[C@H]3O[C@@H]2[C@H]1O	25 isolates	MIC90		>64 µg/mL